Experimental data reported in patent publication US20250066704A1, “CIRCUIT LADDER MICROFLUIDIC PLATFORM (CLAMP) FOR RAPID ANTIMICROBIAL SUSCEPTIBILITY TESTING (AST)” (CORNELL UNIVERSITY, priority 2023, published 2025).

Tested on: bacterial isolates from canine urinary tract infections (Escherichia coli, Proteus mirabilis, Enterococcus faecalis, Staphylococcus pseudintermedius)
Assay: On-chip AST with the ladder microfluidic system, MICs compared with the Sensititre Veterinary UTI plate (SVU)
Type: cell-based
Details: 30 canine UTI isolates (EC, PRM, SP, EF); match = on-chip MIC within ±one 2-fold dilution of SVU MIC; 4-5 h incubation at 37° C

| Structure (SMILES) | MIC accuracy of on-chip AST (on-chip MIC matching SVU MIC) [%] |
| --- | --- |
| CO/N=C(\C(=O)N[C@@H]1C(=O)N2C(C(=O)O)=C(CSC(=O)c3ccco3)CS[C@H]12)c1csc(N)n1 [Ceftiofur] | 96.55 |
| CC1=C(C(=O)O)N2C(=O)[C@@H](NC(=O)[C@H](N)c3ccccc3)[C@H]2SC1 [Cefalexin] | 96.30 |
| CC1(C)S[C@@H]2[C@H](NC(=O)[C@H](N)c3ccccc3)C(=O)N2[C@H]1C(=O)O [Ampicillin] | 100.0 |
| CCN1CCN(c2cc3c(cc2F)c(=O)c(C(=O)O)cn3C2CC2)CC1 [Enrofloxacin] | 83.33 |
